The target of test [1] is T1, polypeptide HER2/ECD (human, UniProt P04626 23-646). As to the kind of experiment: SPR (BIAcore), HER2/ECD immobilized, IgG in flow. On the technique in general: Surface plasmon resonance follows binding to a sensor surface in real time, without labels.
Test [2] has as its target T1, polypeptide HER2/ECD. As to the kind of experiment: ELISA, IgG on immobilized HER2/ECD. For orientation: In an ELISA, binding on a coated surface is turned into a signal by an enzyme label.

What is called Kd is the concentration at which binding is half-saturated. Lower therefore signals a tighter complex. A word on the koff: it is the rate constant with which the complex falls apart. Low readings indicate slow dissociation, high ones fast dissociation. The term kon denotes the second-order rate constant of association. A low value points to slow association. Usually EC50 stands for the concentration at which the effect is half-maximal. A higher EC50 goes with a need for much substance.

B1: GH2-61 (antibody)
chain: DIQMTQSPSSLSASVGDRVTITCRASQDVGSNVAWYQQKPGKAPKLLISWSTSLYSGVPSRFSGSGSGTDFTLTISSLQPEDFATYYCQQYGGWPITFGQGTKVEIKRGGGGSIEGRSGGGGSEVQLVESGGGLVQPGGSLRLSCAASGFTINNWGIHWVRQAPGKGLEWVAGIWPYGGYTYYADSVKGRFTISADTSKNTAYLQMNSLRAEDTAVYYCARFYNHHGGVMDYWGQGTLVTVSSASAAA
In the test with polypeptide HER2/ECD [1], B1 yielded an equilibrium dissociation constant (Kd) of 0.27 nM, a koff of 0.000104 s⁻¹ and a kon of 387000 M⁻¹ s⁻¹. Further, the midpoint of the response with polypeptide HER2/ECD [2], the EC50, lay at 3.5 ng/mL.

For the origin of these results see US20180009877A1 (ACADEMIA SINICA, published 2018).
